One test concerns bacteria and C. albicans. In words: Antimicrobial activity, summary over all strains. Particulars: text summary over E. coli, P. aeruginosa, S. aureus and C. albicans.
Test [1] has as its system Escherichia coli (MG1655). Kind of test: Colony counting assay, lethal concentration (LC). Particulars: for lethal concentration (LC) against E. coli: colony counting, 10^6 cfu/ml, 10 mM sodium phosphate buffer pH 7.4, 2 hrs 37°C, minimum concentration with more than 99% killing, mean (SD) of three independent experiments.
Test [2] deals with Staphylococcus aureus (NCTC 8530). In words: Colony counting assay, lethal concentration (LC). Particulars: for lethal concentration (LC) against S. aureus: colony counting, 10^6 cfu/ml, 10 mM sodium phosphate buffer pH 7.4, 2 hrs 37°C, more than 99% killing, mean (SD) of three independent experiments.
Test [3] concerns Pseudomonas aeruginosa (NCTC 6750). Kind of test: Colony counting assay, lethal concentration (LC). Particulars: for lethal concentration (LC) against P. aeruginosa: colony counting, 10^6 cfu/ml, 10 mM sodium phosphate buffer pH 7.4, 2 hrs 37°C, more than 99% killing, mean (SD) of three independent experiments.
The subject of the next test is S. aureus. Kind of test: Salt sensitivity assay (150 mM NaCl). Format: cell-based, Staphylococcus aureus. Particulars: peptides at lethal concentrations.
For test [4], the system named is Candida albicans (ATCC 18804). In words: Fungicidal activity, minimum fungicidal concentration (MFC), colony counting. Particulars: colony counting as for bacteria; cells grown in YEPD at 30°C; mean (SD) of three independent experiments.
Test [5] relates to E. coli. Kind of test: Kinetics of bacterial killing. Particulars: peptide treated cells plated at fixed time intervals during 2 hrs of incubation. It counts as cell-based, Escherichia coli.
The subject of the next test is C. albicans. Kind of test: Confocal microscopy, localization of CF-labelled peptides, PI uptake, vacuole size. Particulars: for time of PI uptake in C. albicans / time of cytoplasmic localization of peptide in C. albicans: CF-labelled peptides.
Test [6] deals with E. coli. In words: Confocal microscopy, localization of CF-labelled peptides. Particulars: time-lapse confocal microscopy.
In test [7] the test system is E. coli. In words: Salt sensitivity assay (150 mM NaCl). It counts as cell-based, Escherichia coli. Particulars: for activity against E. coli in the presence of 150 mM NaCl: peptides at lethal concentrations.
The test system of another test is P. aeruginosa. Kind of test: Salt sensitivity assay (150 mM NaCl). Format: cell-based, Pseudomonas aeruginosa. Particulars: peptides at lethal concentrations.
Where [8] appears, read: CF-labelled peptide, time-lapse confocal microscopy.

Experimental findings from paper PMC4364940, “Human β-Defensin 4 with Non-Native Disulfide Bridges Exhibit Antimicrobial Activity” (PLoS ONE, 2015) are described below.

Each structure is given as a SMILES string. Some results are limits rather than exact numbers.

For `CC[C@H](C)[C@@H]1NC(=O)[C@H](CCCNC(=N)N)NC(=O)[C@H](Cc2ccc(O)cc2)NC(=O)[C@H](CCC(=O)O)NC(=O)[C@H](CCC(N)=O)NC(=O)[C@H](CO)NC(=O)[C@H](CCCNC(=N)N)NC(=O)[C@H](CCCCN)NC(=O)[C@H](CCCCN)NC(=O)[C@H](CCCNC(=N)N)NC(=O)[C@@H]2CSSC[C@@H](C(=O)N[C@@H](CC(C)C)C(=O)N[C@@H](CCCNC(=N)N)C(=O)N[C@@H](CCCCN)C(=O)O)NC(=O)[C@@H]3CSSC[C@H](NC(=O)[C@@H](NC(=O)[C@H](CCCNC(=N)N)NC(=O)[C@H](CC(=O)O)NC(=O)[C@H](CC(C)C)NC(=O)[C@H](CCC(=O)O)NC(=O)[C@H](Cc4ccccc4)NC(=O)[C@@H](N)CCC(=O)O)[C@@H](C)CC)C(=O)N[C@@H](CSSC[C@H](NC(=O)[C@H](CCCNC(=N)N)NC(=O)CNC1=O)C(=O)N1CCC[C@H]1C(=O)N[C@@H](CC(N)=O)C(=O)N[C@@H]([C@@H](C)O)C(=O)N[C@@H](Cc1ccc(O)cc1)C(=O)N[C@@H](C)C(=O)N3)C(=O)NCC(=O)N[C@@H](Cc1ccc(O)cc1)C(=O)NCC(=O)N[C@@H]([C@@H](C)O)C(=O)N[C@@H](C)C(=O)N[C@@H](CCCNC(=N)N)C(=O)N2`, the “LC or MFC against bacteria and C. albicans” value (“LC or MFC” below) in the test with bacteria and C. albicans lay within 5 to 12.5 µM. Further, the “lethal concentration (LC) against E. coli” value in [1] is reported as 10 (0.46) μM. Moreover, the “lethal concentration (LC) against S. aureus” value in [2] is recorded as 6 (1.30) μM. The “lethal concentration (LC) against P. aeruginosa” value in test [3] was 5 (0.15) μM. Further, the “activity against S. aureus in the presence of 150 mM NaCl” value (shortened to “activity against S. aureus”) in the test on S. aureus was “Loss in activity”. The “minimum fungicidal concentration (MFC) against C. albicans” value (from here on “minimum fungicidal concentration (MFC)”) in test [4] is recorded as 12.5 (0.34) μM. In addition, in the test with E. coli [5], the “time of incubation for killing of E. coli” value (shortened to “time of incubation”) is ≤ 30 min. Also, in the test on C. albicans (setting [8]), the “time for vacuole to cover almost the whole surface area” value is 10 to 12 min. In addition, in the test on C. albicans (time-lapse confocal microscopy), the “time of PI uptake in C. albicans” value fell in the range of 8 to 10 min and the “time of cytoplasmic localization of peptide in C. albicans” value was in the range of 8 to 12 min. Besides, the “increase in vacuole size of C. albicans” value in the test with C. albicans (vacuole diameter measured with ImageJ, treated versus untreated cells, several cells from different fields) is on record as “maximum increase”. In addition, the “time of internalization into E. coli” value in the test with E. coli [6] is recorded as “internalization occurred during the time of peptide mixing with the cell suspension”. In addition, the “salt sensitivity against E. coli in the absence of pmf” value in the test on E. coli [7] (150 mM NaCl with protonophore CCCP (50 μM), inset in Fig. 2) is “attenuation of activity by NaCl is not observed”. Moreover, in the test with E. coli [7], the “activity against E. coli in the presence of 150 mM NaCl” value (from here on “activity against E. coli”) is on record as “Loss in activity”.

Take `CC[C@H](C)[C@@H]1NC(=O)[C@H](CCCNC(=N)N)NC(=O)[C@H](Cc2ccc(O)cc2)NC(=O)[C@H](CCC(=O)O)NC(=O)[C@H](CCC(N)=O)NC(=O)[C@H](CO)NC(=O)[C@H](CCCNC(=N)N)NC(=O)[C@H](CCCCN)NC(=O)[C@H](CCCCN)NC(=O)[C@H](CCCNC(=N)N)NC(=O)[C@@H](NC(=O)[C@H](CCCNC(=N)N)NC(=O)[C@H](C)NC(=O)[C@@H](NC(=O)CNC(=O)[C@H](Cc2ccc(O)cc2)NC(=O)CNC(=O)[C@H](CSC(C)(C)C)NC(=O)[C@H](CSCNC(C)=O)NC(=O)[C@@H](NC(=O)[C@H](CCCNC(=N)N)NC(=O)[C@H](CC(=O)O)NC(=O)[C@H](CC(C)C)NC(=O)[C@H](CCC(=O)O)NC(=O)[C@H](Cc2ccccc2)NC(=O)[C@@H](N)CCC(=O)O)[C@@H](C)CC)[C@@H](C)O)CSSC[C@@H](C(=O)N[C@@H](CC(C)C)C(=O)N[C@@H](CCCNC(=N)N)C(=O)N[C@@H](CCCCN)C(=O)O)NC(=O)[C@H](CSCNC(C)=O)NC(=O)[C@H](C)NC(=O)[C@H](Cc2ccc(O)cc2)NC(=O)[C@H]([C@@H](C)O)NC(=O)[C@H](CC(N)=O)NC(=O)[C@@H]2CCCN2C(=O)[C@H](CSC(C)(C)C)NC(=O)[C@H](CCCNC(=N)N)NC(=O)CNC1=O`: the “LC or MFC” value in the test with bacteria and C. albicans was ≤ 5 µM. In addition, the “lethal concentration (LC) against E. coli” value in test [1] is reported as 2.5 (0.84) μM. Also, the “fold higher activity as compared to native HBD4, E. coli” value in [1] (from LC values) was “two fold”. In addition, the “lethal concentration (LC) against S. aureus” value in test [2] was 3.5 (1.00) μM. In addition, in test [2] (from LC values), the “fold higher activity as compared to native HBD4, S. aureus” value is reported as “four-fold”. The “lethal concentration (LC) against P. aeruginosa” value in test [3] is on record as 3 (0.11) μM. Besides, the “fold higher activity as compared to native HBD4, P. aeruginosa” value in [3] (from LC values) was “four-fold”. Besides, the “activity against S. aureus” value in the test with S. aureus is on record as “activity was lost to a considerable extent”. In addition, the “minimum fungicidal concentration (MFC)” value in test [4] is 5 (0.10) μM. The “time of incubation” value in the test with E. coli [5] was ≤ 30 min. The “activity against P. aeruginosa in the presence of 150 mM NaCl” value in the test with P. aeruginosa is “active”. The “time of PI uptake in C. albicans” value with C. albicans (time-lapse confocal microscopy) is 3 to 5 min. Also, the “time of internalization into E. coli” value with E. coli [6] was 2 to 3 min. In addition, the “activity against E. coli” value in the test with E. coli [7] is “active”.

`CC[C@H](C)[C@@H]1NC(=O)[C@H](CCCNC(=N)N)NC(=O)[C@H](Cc2ccc(O)cc2)NC(=O)[C@H](CCC(=O)O)NC(=O)[C@H](CCC(N)=O)NC(=O)[C@H](CO)NC(=O)[C@H](CCCNC(=N)N)NC(=O)[C@H](CCCCN)NC(=O)[C@H](CCCCN)NC(=O)[C@H](CCCNC(=N)N)NC(=O)[C@@H]2CSSC[C@@H](C(=O)N[C@@H](CC(C)C)C(=O)N[C@@H](CCCNC(=N)N)C(=O)N[C@@H](CCCCN)C(=O)O)NC(=O)[C@H](CSSC[C@H](NC(=O)[C@@H](NC(=O)[C@H](CCCNC(=N)N)NC(=O)[C@H](CC(=O)O)NC(=O)[C@H](CC(C)C)NC(=O)[C@H](CCC(=O)O)NC(=O)[C@H](Cc3ccccc3)NC(=O)[C@@H](N)CCC(=O)O)[C@@H](C)CC)C(=O)N[C@@H](CSC(C)(C)C)C(=O)NCC(=O)N[C@@H](Cc3ccc(O)cc3)C(=O)NCC(=O)N[C@@H]([C@@H](C)O)C(=O)N[C@@H](C)C(=O)N[C@@H](CCCNC(=N)N)C(=O)N2)NC(=O)[C@H](C)NC(=O)[C@H](Cc2ccc(O)cc2)NC(=O)[C@H]([C@@H](C)O)NC(=O)[C@H](CC(N)=O)NC(=O)[C@@H]2CCCN2C(=O)[C@H](CSC(C)(C)C)NC(=O)[C@H](CCCNC(=N)N)NC(=O)CNC1=O`: in the test on bacteria and C. albicans, the “LC or MFC” value was 5 to 12.5 µM. Also, in test [1], the “lethal concentration (LC) against E. coli” value is given as 10 (2.01) μM. The “lethal concentration (LC) against S. aureus” value in [2] was 7.5 (0.28) μM. Besides, the “lethal concentration (LC) against P. aeruginosa” value in [3] is 6.5 (1.09) μM. Moreover, the “activity against S. aureus” value in the test on S. aureus was “not against S. aureus”. The “minimum fungicidal concentration (MFC)” value in [4] was 10 (2.96) μM. For the same compound, the “time of incubation” value in the test with E. coli [5] stood at 80 min. For the same compound, the “activity against P. aeruginosa in the presence of 150 mM NaCl” value in the test on P. aeruginosa is “considerable activity”. Also, the “time of internalization into vacuole of C. albicans” value in the test on C. albicans (setting [8]) fell in the range of 12 to 14 min. For the same compound, in the test on C. albicans (time-lapse confocal microscopy), the “time of PI uptake in C. albicans” value was ≤ 5 min and the “time of cytoplasmic localization of peptide in C. albicans” value lay in the range of 8 to 10 min. The “time of internalization into E. coli” value with E. coli [6] is reported as “internalization occurred during the time of peptide mixing with the cell suspension”. In addition, the “activity against E. coli” value in the test with E. coli [7] was “considerable activity”.
